This passage reports Ratio Ki results from ChEMBL document CHEMBL3576781, “Substituted Bis-THF Protease Inhibitors with Improved Potency against Highly Resistant Mature HIV-1 Protease PR20” (J Med Chem, 2015).

Test [1] deals with Human immunodeficiency virus 1. Briefly: Potency index, ratio of Ki for darunavir to Ki for compound against HIV1 protease PR20 mutant expressed in Escherichia coli BL21 (DE3).
Test [2] has as its system Human immunodeficiency virus 1. Kind of test: Resistance index, ratio of Ki for HIV1 protease PR20 mutant expressed in Escherichia coli BL21 (DE3) to Ki for wild type HIV1 protease.

On to `CC(C)CN(C[C@@H](O)[C@H](Cc1ccccc1)NC(=O)O[C@H]1CO[C@H]2OCC(F)(F)[C@H]21)S(=O)(=O)c1ccc(N)cc1`, for which the Ratio Ki in test [1] came out at 2; in test [2] it was 300.
